A mixed list of measured activities; the numbers were collected in NIAID ChemDB.

Shared fields: whole-cell or culture tests; species: HIV-1; cell line: MT-4; endpoint: EC50

ECn: concentration that inhibits the pathogen or its effect by n%. Rows are shuffled and stem from different studies. An empty or dashed field is not shown.

compound	strain	mutations	read by	conditions	result
CCc1cc(NCc2nc3c(Cl)ccc(Cl)c3o2)c(=O)[nH]c1C	MF		antigen		~0.06 µM
O=c1cc(-c2ccccc2)oc2cc(O)cc(O)c12	IIIB		MTT		15 µg/mL
c1ccc(-c2cc(CN3CCCNCCNCCCNCC3)ccc2CN2CCCNCCNCCCNCC2)cc1	AOM		cytopathic effect / MTT		0.34 µg/mL
CC(C)CN(C[C@@H](O)[C@H](Cc1ccccc1)NC(=O)O[C@H]1CCOC1)S(=O)(=O)c1ccc(N)cc1	NL4-3	L10F L33I M36I M46I I54V K55R I62V L63P A71V G73S V82T	p24 / luminescence		>1 µM
CC(C)CN(C[C@@H](O)[C@H](Cc1ccccc1)NC(=O)O[C@H]1CO[C@H]2OCC(F)(F)[C@H]21)S(=O)(=O)c1ccc(N)cc1	NL4-3	L23I E34Q K43I M46I I50L G51A L63P A71V V82A T91A ATV resistant			0.04 µM
COCOc1ccc(-c2oc3cc(OCOC)cc(O)c3c(=O)c2OCOC)c(OCOC)c1	IIIB		cytopathic effect / MTT		>200 µg/mL
C1CNCCNCCCN(CCCN2CCCNCCNCCCNCC2)CCNC1	NL4-3	AMD3100-resistant	cytopathic effect / MTT		>25 µg/mL
CC(=O)Oc1ccc2ccccc2c1Cc1c[nH]c2ccc(Br)cc12			MTT		11 µM
O=C1N(Cc2ccc(CO)cc2)[C@H](COc2ccccc2)[C@H](O)[C@@H](O)[C@@H](COc2ccccc2)N1Cc1ccc(CO)cc1	IIIB	PR-I84V L90M	cytopathic effect / XTT		0.2 µM
Cc1cc(C)c(-n2nnnc2SCC(=O)Nc2ccc([N+](=O)[O-])cc2Cl)c(C)c1			p24	50% human serum	<1.25 µM
CC(C)=CCc1c(O)cc(-c2cc3ccc(O)cc3o2)cc1O	IIIB		MTT		1.6 µg/mL
O=C1N(Cc2ccc(CO)cc2)[C@H](Cc2ccccc2)[C@H](O)[C@@H](O)[C@@H](Cc2ccccc2)N1Cc1ccc(CO)cc1	NL4-3	PR-M46I L63P V82T I84V	p24		<3 µM
O=c1[nH]cnc2c1ncn2[C@H]1CC[C@@H](CO)O1	HXB2D		p24		7 µM
COc1cc(CN2CCCNCCNCCCNCC2)c(OC)cc1CN1CCCNCCNCCCNCC1	AOM		cytopathic effect / MTT		0.03 µg/mL
CC(C)CN(C[C@@H](O)[C@H](Cc1ccccc1)NC(=O)[C@H](CC(N)=O)NC(=O)c1ccc2ccccc2n1)C(=O)NC(C)(C)C	NL4-3	PR-M46I	p24		<0.2 µM
CCN[C@H]1CO[C@@H]2OCC[C@H](OC(=O)N[C@@H](Cc3ccccc3)[C@H](O)CN(CC(C)C)S(=O)(=O)c3ccc4nc(NC5CC5)sc4c3)[C@@H]21	NL4-3	L10I M46L I54V V82A	p24 / luminescence		0.0035 µM
CC(C)=CCc1c(-c2ccc(O)cc2O)oc2c([C@H]3C=C(C)C[C@@H](c4ccc(O)cc4O)[C@@H]3C(=O)c3ccc(O)cc3O)c(O)cc(O)c2c1=O	IIIB		MTT		>100 µg/mL
CO[P@](=O)(c1cc(C)cc(/C=C/C#N)c1)c1c(C(N)=O)[nH]c2ccc(Cl)c(F)c12	BH10	K103N/Y181C			0.0035 µM
C=CC(C)(C)c1cc2c(cc1O)O[C@H](c1cc(O)c(O)c(CC=C(C)C)c1CC=C(C)C)CC2	IIIB		MTT		>20 µg/mL
CC(=O)Oc1ccc2cc(Br)ccc2c1Cc1c[nH]c2ccc(Br)cc12			MTT		7 µM
c1cc(CN2CCCNCCCNCCNCCC2)cc(CN2CCCNCCCNCCNCCC2)c1	AOM		cytopathic effect / MTT		0.56 µg/mL
CN[C@H]1CO[C@@H]2OCC[C@H](OC(=O)N[C@@H](Cc3cccc(OC)c3)[C@H](O)CN(CC(C)C)S(=O)(=O)c3ccc4nc(NC(C)C)sc4c3)[C@@H]21	NL4-3	L10F M46I I54V V82A	p24 / luminescence		0.026 µM
COc1c(CC=C(C)C)c(O)cc2c1C[C@H](c1ccc(O)c(CC=C(C)C)c1O)CO2	IIIB		MTT		>20 µg/mL
COc1ccc(S(=O)(=O)N(CC(C)C)C[C@@H](O)[C@H](Cc2ccccc2)NC(=O)O[C@H]2CO[C@H]3OCC(F)(F)[C@H]32)cc1	NL4-3	L10I G48V I54V A71V I84V L90M SQV resistant			0.13 µM
CC1(C)C=Cc2c(cc(O)c3c(=O)c4c(oc23)-c2ccc(O)cc2OC(C(C)(C)O)C4)O1	IIIB		cytopathic effect / MTT		>20 µg/mL
Oc1ccc2ccccc2c1CN1CCN(Cc2c(O)ccc3ccccc23)CC1			MTT		>100 µM
Cc1cc(C)c(-n2nnnc2SCC(=O)Nc2ccc(OCCCN(C)C)cc2Cl)c(C)c1			p24	10% FBS	<0.031 µM
COC(=O)N[C@H](C(=O)N[C@@H](Cc1ccccc1)[C@@H](O)CN(Cc1ccc(-c2ccccn2)cc1)NC(=O)[C@@H](NC(=O)OC)C(C)(C)C)C(C)(C)C	NL4-3				0.0047 µM
Cc1ccc(-n2nnnc2SCC(=O)Nc2ccccc2[N+](=O)[O-])c(Br)c1			p24	10% FBS	<0.008 µM
COC(=O)N[C@H](C(=O)N[C@@H](Cc1ccccc1)[C@@H](O)CN(Cc1ccc(-c2ccccn2)cc1)NC(=O)[C@@H](NC(=O)OC)C(C)(C)C)C(C)(C)C	NL4-3	L10F V32I L33F M46L I54M A71V	p24 / luminescence		0.0037 µM
O=c1cnn([C@@H]2O[C@H](CO)[C@@H](O)[C@H]2O)c(=O)[nH]1			MTT		>0.2 µM
COc1ccc(Oc2coc3cc(OC)cc(O)c3c2=O)c(OC)c1	IIIB		cytopathic effect / MTT		>100 µg/mL
Nc1ccn([C@H]2CC[C@@H](CO)O2)c(=O)n1	126 WT		p24		0.35 µM
CN[C@H]1CO[C@@H]2OCC[C@H](OC(=O)N[C@@H](Cc3ccccc3)[C@H](O)CN(CC(C)C)S(=O)(=O)c3ccc4nc(NC5CC5)sc4c3)[C@@H]21	NL4-3	L10F K20T D30N K45I A71V V77I	p24 / luminescence		0.0024 µM
Cc1ccnc2c1NC(=O)c1cccnc1N2C1CC1		RT-M41L T215Y A98G			<3 µM
CC1(C)[C@@H](O[C@H]2O[C@H](C(=O)O)[C@@H](O)[C@H](O)[C@H]2O[C@@H]2O[C@H](C(=O)O)[C@@H](O)[C@H](O)[C@H]2O)CC[C@]2(C)[C@H]3C(=O)C=C4[C@@H]5C[C@@](C)(C(=O)O)CC[C@]5(C)CC[C@@]4(C)[C@]3(C)CC[C@@H]12			RT activity		170 µM
O=c1c(O)c(-c2cc(O)c(O)c(O)c2)oc2cc(O)cc(O)c12	IIIB		MTT		10.5 µg/mL
Cc1cc(C)c(-n2nnnc2SCC(=O)Nc2ccc(S(N)(=O)=O)cc2Cl)c(C)c1			p24	50% human serum	<0.062 µM

Repeating the final 5 entries:

compound,strain,mutations,read by,conditions,result
CN[C@H]1CO[C@@H]2OCC[C@H](OC(=O)N[C@@H](Cc3ccccc3)[C@H](O)CN(CC(C)C)S(=O)(=O)c3ccc4nc(NC5CC5)sc4c3)[C@@H]21,NL4-3,L10F K20T D30N K45I A71V V77I,p24 / luminescence,,0.0024 µM
Cc1ccnc2c1NC(=O)c1cccnc1N2C1CC1,,RT-M41L T215Y A98G,,,<3 µM
CC1(C)[C@@H](O[C@H]2O[C@H](C(=O)O)[C@@H](O)[C@H](O)[C@H]2O[C@@H]2O[C@H](C(=O)O)[C@@H](O)[C@H](O)[C@H]2O)CC[C@]2(C)[C@H]3C(=O)C=C4[C@@H]5C[C@@](C)(C(=O)O)CC[C@]5(C)CC[C@@]4(C)[C@]3(C)CC[C@@H]12,,,RT activity,,170 µM
O=c1c(O)c(-c2cc(O)c(O)c(O)c2)oc2cc(O)cc(O)c12,IIIB,,MTT,,10.5 µg/mL
Cc1cc(C)c(-n2nnnc2SCC(=O)Nc2ccc(S(N)(=O)=O)cc2Cl)c(C)c1,,,p24,50% human serum,<0.062 µM